A mixed list of measured activities; the numbers were collected in NIAID ChemDB.

Common to all: growth or infection tests; agent: HIV-1

ECn: concentration that inhibits the pathogen or its effect by n%. An empty or dashed field is not shown. Neighbouring rows are from separate reports.

compound,read-out,conditions,mutations,cell line,read by,strain,result
Cc1occc1C(=S)Nc1ccc(Cl)c(/C=N/OC(C)(C)C)c1,EC50,-,RT-K103N,CEM,syncytia,IIIB,≥1 µg/mL
CC(=O)SCCOP(=O)(OCCSC(C)=O)OC[C@@H]1CC[C@H](n2cnc3c(N)ncnc32)O1,EC50,-,-,MT-4,cytopathic effect,IIIB,0.011 µM
Cc1nnc(C(=O)NC(C)(C)c2nc(C(=O)NCc3ccc(F)cc3)c(O)c(=O)n2C)o1,EC50,-,+Vpx,MT-4,-,N119,0.004 µM
CC(C)(C)NC(=O)[C@@H]1CN(Cc2cccnc2)CCN1C[C@@H](O)C[C@@H](Cc1ccccc1)C(=O)N[C@H]1c2ccccc2C[C@H]1O,EC90,-,PR-L10I K20R M36I/V P63L/S L90M,PBMC,p24,BR58 (PR L10I K20R M36I/V P63L/S L90M),0.017 µM
N#Cc1ccc(-n2ccc(CN3CCN(C[C@@H](O)C[C@@H](Cc4cccnc4)C(=O)N[C@H]4c5ccccc5OC[C@H]4O)[C@H](C(=O)NCC(F)(F)F)C3)c2)cc1,EC50,-,PR-L10I N37S R41K M46I I54V I62V L63P A71V V77I V82A L90M I93L,MT-4,p24,Q-60C Clinical isolate,<0.031 µM
CCCCCCCCCCCC(=O)O[C@@]12C[C@@H](C)[C@]34C=C(C)[C@H](O)[C@@]3(O)[C@H](O)C(COCc3ccccc3)=C[C@H](C4=O)[C@@H]1C2(C)C,EC50,-,-,MT-4,cytopathic effect / MTT,-,0.03 µg/mL
Cc1cn([C@@H]2O[C@H](CO[Si](C)(C)C(C)(C)C)C3(OS(=O)(=O)C=C3N)[C@H]2O[Si](C)(C)C(C)(C)C)c(=O)n(C)c1=O,EC50,-,RT-Y188L,CEM,syncytia,IIIB,≥50 µg/mL
O=C(NCc1ccccc1)c1nc(-c2ccccc2)[nH]c(=O)c1O,EC95,50% human serum,-,MT-4,p24,-,>10 µM
O=c1[nH]cnc2c1ncn2[C@H]1CC[C@@H](CO)O1,EC50,-,RT-M41L A62V S68N G112S M184V,HeLa,luciferase,Recombinant,0.79 µM
Nc1ccn([C@H]2CC[C@@H](CO)O2)c(=O)n1,EC50,-,RT-K65R,H9,p24,HXB2D (RT-K65R),5.2 µM
Cc1cn([C@H]2C[C@H](N=[N+]=[N-])[C@@H](CO)O2)c(=O)[nH]c1=O,EC50,-,RT-M41W Y188L T215N,PBMC,p24,Y270-7 Clinical isolate ZDV-resistant,1.5 µM
CCN1c2ncccc2N(C)C(=O)c2c1c1ccccc1n2CC,EC50,-,-,C8166,cytopathic effect,IIIB,0.04 µM
Cc1cn([C@H]2C[C@H](N=[N+]=[N-])[C@@H](COP(=O)(Oc3ccccc3)C(O)c3ccc([N+](=O)[O-])cc3)O2)c(=O)[nH]c1=O,EC50,-,-,MT-4,cytopathic effect / MTT,IIIB,0.05 µM
CCN1c2ncccc2N(C)C(=S)c2oc3cccnc3c21,EC50,-,-,MT-4,cytopathic effect,IIIB,0.1 µM
S=C(NCCc1cccs1)Nc1ccc(Br)cn1,EC50,-,RT-Y181C,PBMC,p24,NRTI resistant (RT Y181C) A17,0.04 µM
Nc1nc2c(ncn2C=C=CCO)c(=O)[nH]1,EC50,-,-,ATH8,cytopathic effect / trypan blue,IIIB,>500 µM
COc1ccc(S(=O)(=O)N(CC(C)C)C[C@@H](O)[C@H](Cc2ccc(OC)c(Cl)c2)NC(=O)O[C@H]2CO[C@H]3OCC[C@H]32)cc1,EC50,-,-,MT-4,p24 / luminescence,NL4-3,0.00037 µM
CC(C)CN(C[C@@H](O)[C@H](Cc1ccccc1)NC(=O)[C@H](CC(N)=O)NC(=O)c1ccc2ccccc2n1)C(=O)NC(C)(C)C,EC90,-,-,PBMC,RT activity,LAV,0.14 µM
Cc1ccc(C(O)P(=O)(OC[C@H]2O[C@@H](n3cc(C)c(=O)[nH]c3=O)C[C@@H]2N=[N+]=[N-])Oc2ccccc2)cc1,EC50,-,-,MT-4,cytopathic effect / MTT,IIIB,0.05 µM
CCc1nc2sccn2c1C(=O)c1ccccc1,EC50,-,-,CEM + CEM-SS,RT activity,LAI,6 µM
COC(=O)[C@H](C)NP(=O)(OC[C@@H]1C=C[C@H](n2cc(C)c(=O)[nH]c2=O)O1)Oc1ccc(Br)cc1,EC50,-,-,PBMC,p24,IIIB,0.001 µM
Cc1cn([C@H]2C[C@H](N=[N+]=[N-])[C@@H](CO)O2)c(=O)[nH]c1=O,EC50,-,-,PBMC,p24 / ELISA,-,0.02 µM
N#Cc1cccc(-n2ccc(CN3CCN(C[C@@H](O)C[C@@H](Cc4cccnc4)C(=O)N[C@H]4c5ccccc5OC[C@H]4O)[C@H](C(=O)NCC(F)(F)F)C3)c2)c1,EC50,-,-,MT-4,p24,NL4-3 WT,<0.062 µM
CC(=O)N(O)CCCCCNC(=O)CCC(=O)N(O)CCCCCNC(=O)CCC(=O)N(O)CCCCCN,EC50,-,-,PBLC,XTT / p24,BaL,<10 µM
O=C(O)P(=O)(O)O,EC50,-,RT-Q161L,HT4LACZ-1 + HT4 LacZ-1,syncytia,LAI viral clone (RT-Q161L),203 µM
CCO/N=C(/c1ccco1)c1c(CC)nc2sccn12,EC50,-,-,CEM + CEM-SS,RT activity,LAI,16 µM
Nc1nc2c(ncn2C/C=C/CO)c(=O)[nH]1,EC50,-,-,ATH8,cytopathic effect / trypan blue,IIIB,>500 µM
CCc1nc2sccn2c1C(=O)c1ccco1,EC50,-,-,U1,RT activity,-,>100 µM
CCc1cc(NCc2nc3c(Cl)ccc(Cl)c3o2)c(=O)[nH]c1C,EC50,-,RT-V179D,MT-4,p24,NL4-3,0.4 µM
Nc1nc(N)c2ncn([C@H]3CC[C@](OCP(=O)(O)O)(C(F)(F)F)C3)c2n1,EC50,-,-,PBMC,MTT,LAI,39.2 µM
O=C1Nc2ccc(Cl)cc2[C@@](C#CC2CC2)(C(F)(F)F)O1,EC50,-,+Vpx,MDM,-,NL4-3,0.071 µM
CCc1nc2ccccn2c1C(=O)c1cccs1,EC50,-,-,MM + M/M,RT activity,BaL,0.5 µM
Cc1cn([C@H]2C[C@H](N=[N+]=[N-])[C@@H](COP(=O)(Oc3ccccc3)C(O)c3ccc(Cl)cc3)O2)c(=O)[nH]c1=O,EC50,-,-,MT-4,cytopathic effect / MTT,IIIB,0.05 µM
CC[C@H]1OC(=O)[C@H](C)[C@@H](O[C@H]2C[C@@](C)(OC)[C@@H](O)[C@H](C)O2)[C@H](C)[C@@H](O[C@@H]2O[C@H](C)C[C@H](N(C)C)[C@H]2O)[C@](C)(O)C[C@@H](C)C(=O)[C@H](C)[C@@H](O)[C@]1(C)O,EC50,-,-,PBMC,RT activity,LAV,<1000 µg/mL
Cc1cc(C)c(Nc2nc(NC3CCN(Cc4ccc(Br)cc4)CC3)nc3nc[nH]c23)c(C)c1,EC50,-,-,MT-4,MTT,RES056,>11.45 µM
Cc1ccnc2c1NC(=O)c1cccnc1N2C1CC1,EC50,-,+Vpx,Primary T lymphocytes,-,NL4-3,1.256 µM
CC(C)Nc1cccnc1N1CCN(C(=O)c2cc3cc(NS(C)(=O)=O)ccc3[nH]2)CC1,EC50,-,-,MT-4,MTT,RES056,>43.81 µM
Nc1nc2c(ncn2C/C=C\CO)c(=O)[nH]1,EC50,-,-,ATH8,cytopathic effect / trypan blue,IIIB,>500 µM
COC[C@@H](c1ccc(C(F)(F)F)cc1)N1CCN(C2(C)CCN(C(=O)c3c(C)ncnc3C)CC2)C[C@@H]1C,EC50,-,M518V F519I,PBMC,luciferase,-,0.00017 µM
Cc1cccc(-n2ccc(CN3CCN(C[C@@H](O)C[C@@H](Cc4cccnc4)C(=O)N[C@H]4c5ccccc5OC[C@H]4O)[C@H](C(=O)NCC(F)(F)F)C3)c2)c1,EC95,-,PR-L10I M46I I54V Q58E L63P I64V V77I V82F I84V L90M I93L,MT-4,p24,K-60C Clinical isolate,0.031 µM
Cc1occc1C(=S)Nc1ccc(Cl)c(C(=O)OC2CCCC2)c1,EC50,-,RT-M184V,CEM,syncytia,IIIB,0.003 µg/mL
Cn1c2ccccc2c2c1cc(C#N)c(=O)n2-c1ccc([N+](=O)[O-])cc1,EC50,-,RT-D67N T69N M184V T215F K219Q,HeLa,luciferase,NRTI resistant,0.052 µM
COC(=O)N[C@H](C(=O)N[C@@H](Cc1ccccc1)[C@@H](O)CN(Cc1ccc(-c2ccccn2)cc1)NC(=O)[C@@H](NC(=O)OC)C(C)(C)C)C(C)(C)C,EC50,-,L10F M46I I54V V82A,MT-4,p24 / luminescence,NL4-3,0.041 µM
Cc1cc(C)c(Nc2nc(NC3CCN(Cc4ccccc4F)CC3)nc3nc[nH]c23)c(C)c1,EC50,-,-,MT-4,MTT,IIIB,>23.61 µM
Cc1cn([C@H]2C[C@H](N=[N+]=[N-])[C@@H](COP(=O)(OCc3ccc([N+](=O)[O-])cc3)Oc3ccccc3)O2)c(=O)[nH]c1=O,EC50,-,-,MT-4,cytopathic effect / MTT,IIIB,0.01 µM
O=c1[nH]cnc2c1ncn2[C@H]1CC[C@@H](CO)O1,EC50,-,RT-K65R,PBMC,p24,HXB2D (RT-K65R),26.8 µM
O=c1[nH]cnc2c1ncn2[C@H]1CC[C@@H](CO)O1,EC50,-,-,Primary T lymphocytes,-,NL4-3,0.402 µM
Cc1cn([C@H]2C=C[C@@H](CO)O2)c(=O)[nH]c1=O,EC90,-,L74V,Primary T lymphocytes,p24 / ELISA,-,9.8 µM
CCCCCCCCCCCC(=O)O[C@@]12C[C@@H](C)[C@]34C=C(C)[C@H](OC(=O)CCCCC)[C@@]3(O)[C@H](O)C(CO)=C[C@H](C4=O)[C@@H]1C2(C)C,EC50,-,-,MT-4,cytopathic effect / MTT,-,0.00044 µg/mL
Cc1cc(C)c(Nc2nc(NC3CCN(Cc4cccnc4)CC3)nc3nc[nH]c23)c(C)c1,EC50,-,-,MT-4,MTT,IIIB,19.55 µM
COc1ccc(C(O)P(=O)(OC[C@H]2O[C@@H](n3cc(C)c(=O)[nH]c3=O)C[C@@H]2N=[N+]=[N-])Oc2ccccc2)cc1,EC50,-,-,MT-4,cytopathic effect / MTT,IIIB,0.04 µM
Cc1ccnc2c1NC(=O)c1cccnc1N2C1CC1,EC50,-,RT-Y181C,PBMC,p24,NRTI resistant (RT Y181C) A17,>100 µM
CC(=O)N1CCC(C(=O)N(CCCN2CCC(Cc3ccc(C(N)=O)cc3)CC2)c2ccc(C)c(Cl)c2)CC1,EC50,-,-,U87 (CD4+ CXCR4+) + U87,luciferase,X4 subtype B_2 recombinant,>19 µM
COc1cc(C[C@H](C)[C@H](C)Cc2ccc(O)c(O)c2)ccc1O,EC50,-,-,CEM + CEM-SS,XTT,IIIB,21 µg/mL
O=C(N[C@H]1c2ccccc2OC[C@H]1O)[C@H](Cc1cccnc1)C[C@H](O)CN1CCN(Cc2ccn(-c3cccc(C(F)(F)F)c3)c2)C[C@H]1C(=O)NCC(F)(F)F,EC50,-,-,MT-4,p24,NL4-3 WT,<0.015 µM
CN(C)C(c1ccccc1)c1nc(C(=O)NCc2ccc(F)cc2)c(O)c(=O)[nH]1,EC50,10% FBS,-,MT-4,p24,-,<0.3 µM
CCN1c2cc(C)c(C)cc2N(C)S(=O)(=O)c2cccnc21,EC50,-,-,MT-4,cytopathic effect,NDK,0.3 µM
CCc1c(C(=O)c2cc(C)cc(C)c2)n(CC2CC=CC2)c(=O)[nH]c1=O,EC50,-,-,CEM + CEM-SS,cytopathic effect / XTT,NL4-3,0.002 µM
Nc1ccn([C@@H]2CS[C@H](CO)O2)c(=O)n1,EC50,-,M184V,Primary T lymphocytes,p24 / ELISA,-,>10 µM
CCCN(C)C(=O)Oc1nsnc1-c1c(Cl)ccc(N)c1Cl,EC50,-,RT-T240I,MAGI,MTT,IIIB,0.19 µM
CC(c1nc(C(=O)NCc2ccc(F)cc2)c(O)c(=O)[nH]1)N(C)C,EC50,50% human serum,-,MT-4,p24,-,<0.5 µM
Cc1cccc(C)c1OP(=O)(OC[C@H]1O[C@@H](n2cc(C)c(=O)[nH]c2=O)C[C@@H]1N=[N+]=[N-])C(O)c1cccnc1,EC50,-,-,MT-4,cytopathic effect / MTT,IIIB,0.01 µM
CCCCCCCCCCCC(=O)O[C@@]12C[C@@H](C)[C@]34C=C(C)[C@H](O)[C@@]3(O)[C@H](O)C(COC(=O)c3ccccc3)=C[C@H](C4=O)[C@@H]1C2(C)C,EC50,-,-,MT-4,cytopathic effect / MTT,-,0.001 µg/mL
CCc1nc2ccccn2c1C(=O)c1ccco1,EC50,-,-,CEM + CEM-SS,RT activity,LAI,5 µM
CCCCCCCCCCCCCCCCCC(=O)O[C@H]1C(C)=C[C@]23C(=O)[C@@H](C=C(CO)[C@@H](O)[C@]12O)[C@@H]1C(C)(C)[C@]1(OC(=O)CCCCCCCCCCC)C[C@H]3C,EC50,-,-,MT-4,cytopathic effect / MTT,-,0.34 µg/mL
CCOCn1c(Cc2ccccc2)c(C(C)C)c(=O)[nH]c1=O,EC50,-,RT-L100I,CEM,syncytia,IIIB,0.007 µg/mL
O=C(NCc1ccc(F)cc1)c1nc(Cc2ccccc2)[nH]c(=O)c1O,EC50,10% FBS,-,MT-4,p24,-,<5.8 µM
Nc1ncnc2c1ncn2[C@H]1CC[C@@H](CO)O1,EC50,-,-,CEM + CEM-SS,cytopathic effect,IIIB,0.54 µM

For reference, 6 entries again:

| compound | read-out | conditions | mutations | cell line | read by | strain | result |
|---|---|---|---|---|---|---|---|
| CCc1cc(NCc2nc3c(Cl)ccc(Cl)c3o2)c(=O)[nH]c1C | EC50 | - | RT-V179D | MT-4 | p24 | NL4-3 | 0.4 µM |
| Cc1nnc(C(=O)NC(C)(C)c2nc(C(=O)NCc3ccc(F)cc3)c(O)c(=O)n2C)o1 | EC50 | - | +Vpx | MT-4 | - | N119 | 0.004 µM |
| O=C(NCc1ccccc1)c1nc(-c2ccccc2)[nH]c(=O)c1O | EC95 | 50% human serum | - | MT-4 | p24 | - | >10 µM |
| Nc1nc2c(ncn2C/C=C/CO)c(=O)[nH]1 | EC50 | - | - | ATH8 | cytopathic effect / trypan blue | IIIB | >500 µM |
| CCCCCCCCCCCC(=O)O[C@@]12C[C@@H](C)[C@]34C=C(C)[C@H](O)[C@@]3(O)[C@H](O)C(COCc3ccccc3)=C[C@H](C4=O)[C@@H]1C2(C)C | EC50 | - | - | MT-4 | cytopathic effect / MTT | - | 0.03 µg/mL |
| Cc1ccnc2c1NC(=O)c1cccnc1N2C1CC1 | EC50 | - | +Vpx | Primary T lymphocytes | - | NL4-3 | 1.256 µM |